Measurements taken from PubChem BioAssay AID1885 (Broad Institute, 2009).
Only a part is listed here, and it is no random draw. Activity calls are given as the source filed them.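 Rule for the calls: active = mean inhibition across valid replicates above about 55% (limit read from the data); inconclusive = mean below that limit but half or more replicates reach it; inactive = mean below it, under half of replicates reach it.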

test: Trypanosoma cruzi replication blockers in host cells – luminescence, NIH3T3 host cells, primary screen (AID 1885);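 note: signal also drops with host cell toxicity which is not excluded here; 0% = plate median of DMSO wells and 100% = zero luminescence signal; higher percent means less beta-gal luminescence so fewer parasites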; conditions: T. cruzi beta-gal in NIH3T3, luminescence, 90 h; stronger effect = higher value; concentration not given here
Procedure, shortened: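 assay system = mouse NIH/3T3 fibroblasts infected with β-gal-expressing T. cruzi Tulahuen C4 | input = 5,000 NIH/3T3 host cells per well | buffer or medium = DMEM plus 2% FBS | timing = 3 h host attachment, then at least 90 h co-culture | measured by = GalScreen luminescence, 60 min | evaluation = luminescence reflecting intracellular parasite burden, expressed as percent inhibition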

Question: Which inhibition does the source give for `O=C(NCC1(N2CCCCC2)CCCCC1)c1cccc(C(F)(F)F)c1` here?
Answer: inactive: 15.6%

Question: Which inhibition does the source give for `COc1ccc(NC2CCN(C(=O)OC(C)(C)C)CC2)cc1` here?
Answer: inactive: -9.19%

Question: With `CN1CCN(CCOC(=O)C(O)(c2ccccc2)c2ccccc2)CC1` as the compound, how does the inhibition read?
Answer: inactive: 2.44%

Question: For `O=C(NCC1(N2CCOCC2)CCCCC1)c1cc(=O)[nH]c2ccccc12`, which inhibition is on record?
Answer: inactive: -4.65%

Question: Which inhibition does the source give for `COc1cc(C(=O)NCC2(N3CCCCC3)CCCCC2)ccc1OC(F)F` here?
Answer: inactive: 14.6%

Question: For `O=C(NCC1(N2CCCCC2)CCCCC1)c1ccc(OC(F)F)cc1`, which inhibition is on record?
Answer: inactive: -6.38%

Question: With `O=C(NCC1(N2CCCCC2)CCCCC1)c1cccc([N+](=O)[O-])c1` as the compound, how does the inhibition read?
Answer: inactive: 2%

Question: For `CCN1CCC(Nc2ccc(Cl)cc2)CC1`, which inhibition is on record?
Answer: inactive: 3.3%

Question: Which inhibition does the source give for `N#CC1(Nc2ccccc2)CCN(CCc2ccccc2)CC1` here?
Answer: inactive: -7.56%

Question: Which inhibition does the source give for `CN1CCC(Nc2cccc(F)c2)CC1` here?
Answer: active: 69.5%

Question: For `CCCOc1ccc(C(=O)NCC2(N(C)C)CCCCC2)cc1OC`, which inhibition is on record?
Answer: inactive: -8.37%

Question: With `COc1ccc(CN(CCCl)CCCl)cc1Cl` as the compound, how does the inhibition read?
Answer: inactive: -13.1%

Question: For `CN(C)c1cccc(C(=O)NCC2(N3CCCCC3)CCCCC2)c1`, which inhibition is on record?
Answer: inactive: -3.85%

Question: For `CC(C)c1ccc(NC2CCN(C(=O)OC(C)(C)C)CC2)cc1`, which inhibition is on record?
Answer: inactive: 10.6%

Question: For `COc1cc(OC)c(C(=O)NCC2(N(C)C)CCCCC2)cc1OC`, which inhibition is on record?
Answer: inactive: -3.43%

Question: For `O=C(NCC1(N2CCOCC2)CCCCC1)c1cc2ccccc2o1`, which inhibition is on record?
Answer: inactive: 2.08%

Question: Which inhibition does the source give for `O=C(NCC1(N2CCCCC2)CCCCC1)c1ccc(Cl)nc1` here?
Answer: inactive: -7.27%

Question: Which inhibition does the source give for `Cc1cc(C)cc(N(C(=O)c2ccccc2)C2CCN(C(=O)OC(C)(C)C)CC2)c1` here?
Answer: inactive: 49.3%

Question: Which inhibition does the source give for `CCOC(=O)N1CCC(Nc2ccc(OC)cc2)CC1` here?
Answer: inactive: 22.9%

Question: For `N#CC1(Nc2ccccc2)CCN(Cc2ccccc2)CC1`, which inhibition is on record?
Answer: inactive: 11.2%

Question: With `O=C(OC1CN2CCC1CC2)C1c2ccccc2Oc2ccccc21` (centres undefined) as the compound, how does the inhibition read?
Answer: inactive: 14.4%

Question: For `O=C(NCC1(N2CCCCC2)CCCCC1)c1ccc(=O)[nH]c1`, which inhibition is on record?
Answer: inactive: -1.65%

Question: Which inhibition does the source give for `O=C(NCC1(N2CCCCC2)CCCCC1)c1cccs1` here?
Answer: inactive: 1.56%

Question: With `COc1ccc(C(=O)NCC2(N3CCCCC3)CCCCC2)cc1` as the compound, how does the inhibition read?
Answer: inactive: 12.2%

Question: With `CC(C)(C)OC(=O)N1CCC(N(C(=O)c2ccccc2)c2ccc(F)cc2)CC1` as the compound, how does the inhibition read?
Answer: inactive: 12.3%

Question: With `COc1ccc(C(=O)NCC2(N3CCCCC3)CCCCC2)c(OC)c1OC` as the compound, how does the inhibition read?
Answer: inactive: 8.66%

Question: For `CSc1ccccc1C(=O)NCC1(N2CCCCC2)CCCCC1`, which inhibition is on record?
Answer: inactive: 30.5%

Question: Which inhibition does the source give for `CCOC(=O)N1CCC(Nc2cccc(C)c2)CC1` here?
Answer: inactive: -3.71%

Question: For `COc1cc(C(=O)NCC2(N(C)C)CCCCC2)ccc1OC(F)F`, which inhibition is on record?
Answer: inactive: -12.4%

Question: Which inhibition does the source give for `Cc1ccc(OCC(C)C)c(CN(CCCl)CCCl)c1` here?
Answer: inactive: 11.4%

Question: Which inhibition does the source give for `CCOc1ccc(C)cc1CN(CCCl)CCCl` here?
Answer: inactive: -2.31%

Question: For `O=C(NCC1(N2CCCCC2)CCCCC1)c1ccc(F)cc1`, which inhibition is on record?
Answer: inactive: 1.98%

Question: For `CCOC(=O)N1CCC(Nc2ccc(F)cc2)CC1`, which inhibition is on record?
Answer: inactive: 5.91%

Question: With `COc1ccc(NC2CCN(CCc3ccccc3)CC2)c(OC)c1` as the compound, how does the inhibition read?
Answer: inactive: -1.05%

Question: With `CCN1CCC(Nc2cccc(F)c2)CC1` as the compound, how does the inhibition read?
Answer: inactive: -1.53%

Question: With `CN(C)c1ccc(C(=O)NCC2(N3CCCCC3)CCCCC2)cc1` as the compound, how does the inhibition read?
Answer: inactive: 0.113%

Question: Which inhibition does the source give for `COc1cc(OC)cc(C(=O)NCC2(N3CCCCC3)CCCCC2)c1` here?
Answer: inactive: 9.8%

Question: For `Cc1ccc(C(=O)NCC2(N3CCCCC3)CCCCC2)o1`, which inhibition is on record?
Answer: inactive: 0.859%

Question: With `Fc1ccccc1NC1CCN(Cc2ccccc2)CC1` as the compound, how does the inhibition read?
Answer: inactive: -20.7%

Question: Which inhibition does the source give for `CCC(CO)(C(=O)OC1CN2CCC1CC2)c1ccccc1` (centres undefined) here?
Answer: inactive: 10.3%

Question: With `COc1cccc(C(=O)N(c2cc(C)cc(C)c2)C2CCN(C(=O)OC(C)(C)C)CC2)c1` as the compound, how does the inhibition read?
Answer: inactive: 25.7%

Question: With `COc1cc(OC)cc(C(=O)NCC2(N3CCOCC3)CCCCC2)c1` as the compound, how does the inhibition read?
Answer: inactive: 2.96%

Question: With `CCCOc1ccc(C)cc1CN(CCCl)CCCl` as the compound, how does the inhibition read?
Answer: inactive: 11.7%

Question: For `CN1CCC(Nc2ccc(Cl)cc2)CC1`, which inhibition is on record?
Answer: inactive: 11.8%

Question: With `CCOc1ncccc1C(=O)NCC1(N2CCOCC2)CCCCC1` as the compound, how does the inhibition read?
Answer: inactive: -3.07%

Question: Which inhibition does the source give for `CN1CCC(Nc2ccc(F)c(Cl)c2)CC1` here?
Answer: inactive: 34.5%

Question: With `CCCOc1ccc(C(=O)NCC2(N(C)C)CCCCC2)cc1` as the compound, how does the inhibition read?
Answer: inactive: -2.73%

Question: For `CC(C)(C)OC(=O)N1CCC(Nc2ccccc2)CC1`, which inhibition is on record?
Answer: inactive: -15.6%

Question: For `O=C(O)C1(Nc2ccccc2)CCN(Cc2ccccc2)CC1`, which inhibition is on record?
Answer: inactive: 5.31%

Question: For `N/C(=N\O)c1c(N)no[n+]1[O-]`, which inhibition is on record?
Answer: inactive: -6.93%

Question: Which inhibition does the source give for `CCOC(=O)N1CCC(Nc2ccc(C)cc2)CC1` here?
Answer: inactive: -6.51%

Question: Which inhibition does the source give for `CCc1cc(C(=O)NCC2(N3CCCCC3)CCCCC2)sc1C` here?
Answer: inactive: -3.03%

Question: With `O=C(OC1CN2CCC1CC2)C1c2ccccc2C=Cc2ccccc21` (centres undefined) as the compound, how does the inhibition read?
Answer: inactive: 34.6%

Question: With `COc1ccc(C(=O)NCC2(N3CCOCC3)CCCCC2)cc1OC` as the compound, how does the inhibition read?
Answer: inactive: -10.9%

Question: For `c1ccc(CN2CCC(Nc3ccccc3)CC2)cc1`, which inhibition is on record?
Answer: inactive: 7.08%

Question: For `CCCN1CCC(Nc2cc(OC)cc(OC)c2)CC1`, which inhibition is on record?
Answer: inactive: 15.2%

Question: For `CN(C)C1(CNC(=O)c2cccc(C#N)c2)CCCCC1`, which inhibition is on record?
Answer: inactive: -3.66%

Question: For `CC(C)(C)OC(=O)N1CCC(N(C(=O)c2ccccc2)c2ccc(Cl)cc2)CC1`, which inhibition is on record?
Answer: inactive: 17.9%

Question: With `N#Cc1ccc(C(=O)NCC2(N3CCCCC3)CCCCC2)cc1` as the compound, how does the inhibition read?
Answer: inactive: 4.68%
